Measured values as given in publication PMC7846482 (The Journal of Biological Chemistry, 2021).

B1: mouse anti-SARS-CoV-2 spike monoclonal antibody clone R52 (antibody, V domains shown)
VH: QIQLVQSGPELKKPGETVKISCKASGYTFTNYGMNWVKQAPGNGLRWMGWINTYTREPSYAADFKGRFAFSLETSARAAYLQINNLKNEDTATYFCARNGAMDYWGQGTSVTVSS
VL: DVVMTQTPLTLSVTFGQPASISCKSSQSLLDSDGKTYLIWLLQRPGQSPKRLISLVSKLDSGVPDRFTGSGSGTDFTLKISRVEAEDLGVYYCWQGTHFPGTFGGGTKLEIK
B2: mouse anti-SARS-CoV-2 spike monoclonal antibody clone R22 (antibody, V domains shown)
VH: EVQLQQSGPELVRPGASVKISCKTSGYTFTEYIIHWVKQSHGKSLEWIGGIDPNNGDTSYNQKFKGKASLTVDKSSSTAYMELRSLTSDDSAVYYCARLDFDYWGQGTTLTVSS
VL: DIVMTQSHKFMSTSVGDRVSITCKASQDVRTAVAWYQQKPGQSPKLLIYWASTRYTGVPDRFTGSGSGTDYTLTISSVQAEDLALYYCQQHDSTPLTFGAGTKLELK
B3: mouse anti-SARS-CoV-2 spike monoclonal antibody clone S1D7 (antibody, V domains shown)
VH: QVQLQQSGAELVKPGASVKLSCKASGYTFTSYYIYWMKQRPGQGLEWIGEINPNNGGTNFNEKFKSKATLTVDKSSSTAYMQLSSLTSEDSAVYYCTRGHSDYWGQGTTLTVSS
VL: DIVLTQSPASLAVSLGQRATISCRASESVEYYGTGLMQWYQQKPGQPPKLLIYAASNVESGVPARFSGSGSGTDFSLNIHPVEEDDIAMYFCQQTRKVPYTFGGGTKLEIK
B4: mouse anti-SARS-CoV-2 spike monoclonal antibody clone S3D8 (antibody, V domains shown)
VH: QVQLQQSGAELVKPGASVKLSCKASGYTFTSYYMYWMKQRPGQGLEWIGEINPSNGGTNFNEKFKSKATLTVDKSSSTAYMQLSSLTSEDSAVYYCTIFITRDAMDYWGQGTSVTVSS
VL: QIVLTQSPAIMSASPGEKVTLTCSASSSVSSSYLFWYQQKPGSSPKLWIYTTSNLASGVPARFSGSGSGTSYSLTISSMEAEDAASYFCHQWSSYPPTFGAGTKLELK
B5: recombinant human/mouse chimeric antibody R52h (antibody, V domains shown)
VH: B1 VH
VL: B1 VL

Columns and labels:
[1] = target: wild-type (native) SARS-CoV-2 spike glycoprotein expressed in 293T cells (Severe acute respiratory syndrome …, UniProt P0DTC2); experiment: western blotting
[2] = target: T1, spike glycoprotein expressed in VeroE6/TM2 cells during SARS-CoV-2 infection (SARS-CoV-2, isolate not named in the …, UniProt P0DTC2); experiment: western blotting; settings: one partner purified
T1 construct: also called spike glycoprotein of live SARS-CoV-2

[3] = target: T1, spike glycoprotein expressed in …; experiment: immunostaining of cells or tissue; […]; settings: one partner purified

Binder	binding result [2]	binding result [3]	other results
B1	binds		binding result ([1]; one partner purified): binds
B2	binds		
B3		binds	
B4		binds	
B5			binding result [1]: binds

Like-named read-outs stand apart in the source and are kept apart here.
